Data published in patent US20120014883A1, “Compositions Comprising Derivatives Of Essential Oil Compounds And Use In Personal Care Products” (priority 2010, published 2012).

Experiment: Descriptive Profile Panel (DPP) sensory test of eugenol (clove-like) taste
Settings: for perception of eugenol (clove-like) taste, expert panel rating: 50 ppm in 5% sucrose water solution, swished and expectorated, 0-60 scale with half-unit intervals, 10 panelists

| Compound | perception of eugenol (clove-like) taste, expert panel rating | difference in eugenol (clove-like) taste rating vs 50 ppm eugenol solution (0-60 scale, differences of 7.5 or more are likely consumer-meaningful) |
| --- | --- | --- |
| C=CCc1ccc(O)c(OC)c1 [eugenol, 2-methoxy-4-(2-propenyl)phenol, reference compound] | 24.5 | – |
| C=CCc1ccc(OC(C)=O)c(OC)c1 [eugenyl acetate] | 14.2 | 10.3 |
